Pooled drug test results. Numbers come from NIAID ChemDB, via PubChem.

Common to all: target-level tests; species: HIV-1; protein: Integrase; read-out: IC50

Conditions beyond the fields shown may differ between rows. An empty or dashed field is not shown. ICn: concentration for n% inhibition.

compound,strain,changes,method,conditions,result
O/N=C1\C(=C\c2ccc3c(c2)OCO3)CCCC1C(NO)c1ccc2c(c1)OCO2,RF,,strand transfer,,>200 µM
O=CNc1ccc(S(=O)(=O)c2ccc(NC=O)cc2)cc1,,,3′ processing,,>100 µM
O=CCc1c(-c2ccccc2)c2cc(Cl)ccc2[nH]c1=O,,,AlphaScreen,,12 µM
O=C(/C=C/c1ccc(O)c(O)c1)O[C@@H]1C[C@](OC(=O)/C=C/c2ccc(O)c(O)c2)(C(=O)O)C[C@@H](O)[C@H]1O,LAI,,,,0.47 µM
Cc1cc([N+](=O)[O-])c(S(=O)(=O)c2ccccc2)c([N+](=O)[O-])c1,,,3′ processing,,>100 µM
O=C1c2cccc(O)c2C(=O)c2c(O)cccc21,,,strand transfer,,>100 µM
COc1cccc2c1C(=O)c1c(O)c3c(c(O)c1C2=O)C[C@@](O)(C(=O)CO)C[C@@H]3OC1CC(N2CCOCC2)C(O)[C@H](C)O1,RF,,3′ processing,,1.4 µM
O=C1C=CC(=O)c2c(O)ccc(O)c21,,,3′ processing / substrate cleavage,,5.73 µM
COC(=O)c1ccc2cc(/C=C/c3ccc(OC)c(OC)c3)oc2c1OC,,,3′ processing,,>>100 µM
COC(=O)C(N)Cc1ccc(O)c(O)c1,,,strand transfer,,>25 µM
N#CC(C#N)=NNc1ccc(S(=O)(=O)c2ccc(NN=C(C#N)C#N)cc2)cc1,,,strand transfer,,21.9 µM
Nc1ccn(C2CC(O)C(COP(=O)(O)OC3CC(n4cnc5c(N)ncnc54)OC3COP(=O)(O)OC3CC(n4ccc(N)nc4=O)OC3COP(=O)(O)O)O2)c(=O)n1,,,strand transfer,,27 µM
Cc1ccccc1-c1cccc2c(-c3ccc4c(c3)OCCO4)c(C(OC(C)(C)C)C(=O)O)c(C)nc12,,,strand transfer / fluorescence,,0.09 µM
CCCCCC(=O)c1c(O)cc2c(c1O)C(=O)c1c(O)cc(O)cc1C2=O,,,3′ processing,Mn2+,53 µM
COc1cc(-c2ccc(O)cc2)c(OC)c(O)c1-c1ccc(O)c(O)c1,,,strand transfer,,12.1 µM
[N-]=[N+]=NCc1cccc(C(=O)CC(=O)C(=O)O)c1,,,strand transfer,,0.33 µM
COc1ccc(/C=C/c2ncc3cccc(OC)c3n2)cc1O,,,3′ processing,,>>200 µM
O=C=Nc1cc(S(=O)(=O)c2ccc(Cl)c(N=C=O)c2)ccc1Cl,,,3′ processing,,100 µM
Cc1ccc(Cl)c(Cc2ccc3c(c2)c(=O)c(C(=O)O)cn3CCO)c1,,,ELISA,,0.13 µM
C[C@@H]1CCO[C@H]2Cn3cc(C(=O)NCc4ccc(F)cc4F)c(=O)c(O)c3CN12,,N155H,,,0.032 µM
Nc1ccn([C@H]2C[C@H](OP(=O)(O)OC[C@H]3OC[C@@H](n4ccc(=O)[nH]c4=O)[C@@H]3O)[C@@H](COP(=O)(O)O)O2)c(=O)n1,,,3′ processing,,7 µM
Nc1nc2c(ncn2C2CC(O)C(COP(=O)(O)OC3CC(n4cnc5c(=O)[nH]c(N)nc54)OC3COP(=O)(O)O)O2)c(=O)[nH]1,,,3′ processing,,54 µM
COc1cccc2cnc(/C=C/c3ccc(O)cc3)nc12,,,3′ processing,,>>200 µM
O=C(/C=C/c1ccc(O)c(O)c1)O[C@@H]1CC(O)(C(=O)O)C[C@@H](OC(=O)/C=C/c2ccc(O)c(O)c2)C1O,,,3′ processing,,0.64 µM
CC(=O)Oc1ccc(/C=C/c2ncc3ccccc3n2)cc1,,,3′ processing,,>>200 µM
Nc1ccn(C2CC(OP(=O)(O)OCC3OC(n4cnc5c(N)ncnc54)CC3OP(=O)(O)OCC3OC(n4cnc5c(=O)[nH]c(N)nc54)CC3O)C(CO)O2)c(=O)n1,,,strand transfer,,53 µM
CC[n+]1c(-c2ccccc2)c2cc(N)ccc2c2ccc(N)cc21,,,strand transfer,,5.66 µM
CC(C)=CCC[C@H](C)[C@H]1CC[C@]2(C)C[C@H]3[C@@H](C(=O)C[C@@]3(C)O)C(C=O)=C[C@@H]12,,,strand transfer,,>120 µM
Nc1c(Br)cc2c([nH]c(=O)c3cc(Br)ccc32)c1Br,,,3′ processing,Mn2+,60 µM
CN(C)C1C(=O)C(C(=O)NCNCCCO)=C(O)C2(O)C(=O)C3=C(O)c4c(O)cccc4C(C)(O)C3CC12,RF,,3′ processing,,1.2 µM
CC(C)(C)C(=O)c1sc(C(=O)NCc2ccccc2)c(O)c1O,,,3′ processing,,12.5 µM
CCC(CO)NC(=O)Nc1ccc(S(=O)(=O)c2ccc([N+](=O)[O-])cc2)cc1,,,3′ processing,,>100 µM
Cc1cn(C2CC(OP(=O)(O)OCC3OC(n4cnc5c(=O)[nH]c(N)nc54)CC3O)C(COP(=O)(O)O)O2)c(=O)[nH]c1=O,,,3′ processing,,65 µM
O=C(O)c1ccc2cc(/C=C/c3ccc(O)c(O)c3)oc2c1O,,,3′ processing,,44.01 µM
O=C(O)C(=O)CC(=O)c1ccccc1Cc1ccccc1,IIIB,,strand transfer,,7 µM
Cc1ccnc(NS(=O)(=O)c2ccc(N=Nc3cc4ccccc4c(C(=O)O)c3O)cc2)n1,,,3′ processing,Mg2+,59 µM
NCCCNCCCCNCCCN,,,3′ processing / substrate cleavage,,>100 µM
Oc1ccc(/C=C/c2ccc3cccc(O)c3n2)cc1O,,,3′ processing,,130.7 µM
C=C(C)[C@@H]1CCC2[C@]3(CC[C@]4(C)[C@@H]([C@H](C)CC/C=C(/C)C(=O)O)CC[C@@]24C)C[C@]13CCC(=O)O,,,binding / fluorescence,,2.8 µM
O=C(O)C(=O)CC(=O)c1cccc(Cc2cccc(F)c2)c1,IIIB,,strand transfer,,0.15 µM
CCOC(=O)C(=O)C(=O)c1cccn1Cc1ccc(F)cc1,,,strand transfer,,>100 µM
O=C(O)c1cc(-c2ccc(F)cc2F)ccc1O,,,AlphaScreen,,17.71 µM
O=C(O)C(=O)CC(=O)c1ccc(Cc2ccccc2)s1,IIIB,,strand transfer,,0.6 µM
CC(=O)Oc1ccc(/C=C/c2ncc3ccccc3n2)cc1OC(C)=O,,,3′ processing,,>>200 µM
O=C(OCC1OCOC(COC(=O)c2ccccc2)C(O)C1O)c1ccccc1,,,3′ processing,Mn2+,>200 µM
CCCCCCNC(=O)OCCCCCCNC(=O)OC1CCN(C(=O)Oc2ccc(Oc3ccccc3)cc2)CC1,,,ELISA / strand transfer,,0.85 µM
COC(=O)C(=O)CC(=O)c1cccn1Cc1ccc(F)cc1,,,binding,,1.12 µM
O=C(/C=C/c1ccc(O)c(O)c1)OCCc1ccccc1,,,3′ processing / substrate cleavage,,220 µM
CC(=O)O[C@H](C)[C@@H]1C2=C(C(=O)C[C@]1(C)O)C(=O)c1c(ccc(-c3ccc4c(c3O)C(=O)C3=C(C4=O)[C@@H]([C@@H](C)OC(C)=O)[C@@](C)(O)CC3=O)c1O)C2=O,RF,,3′ processing,,140 µM
O=C(/C=C/c1ccc(O)c(O)c1)OCCc1ccccc1,,,3′ processing,,220 µM
O=C(/C=C/c1ccc(O)c(O)c1/C=C/c1ccc(O)c(O)c1)OC(Cc1ccc(O)c(O)c1)C(=O)O,,,radiometric / fluorescence,,0.4 µg/mL
O=S(=O)(c1ccc(Cl)c(Cl)c1)c1ccc(Cl)c(Cl)c1,,,3′ processing,,>100 µM
COC(=O)c1ccc2cc(/C=C/c3ccc(O)c(O)c3)oc2c1OC,,,3′ processing,,43.8 µM
N=C(CC(=O)c1cn(Cc2ccc(F)cc2)cc1-c1ccccc1)C(=O)O,,,strand transfer,,0.044 µM
COC(=O)c1ccc2cc(/C=C/c3ccc(O)cc3)oc2c1O,,,3′ processing,,>>100 µM
Cc1cc(=O)[nH]c2c(OCOc3cccc4c(C)cc(=O)[nH]c34)cccc12,,,3′ processing,Mg2+,>200 µM
CC(C)=C/C=C\[C@H](C)[C@H]1CC[C@]2(C)C[C@H]3[C@@H](C(=O)C[C@@]3(C)O)C(C=O)=C[C@@H]12,,,absorbance,,19 µM
CC[C@@]1(O)C(=O)OCc2c1cc1n(c2=O)Cc2cc3cc4c(cc3nc2-1)OCO4,,,strand transfer,,>100 µM
O=NNc1ccc(S(=O)(=O)c2ccc(NN=O)cc2)cc1,,,3′ processing,,6.5 µM
CCCCc1[nH]cc(CC(Cc2cccs2)C(=O)O)[n+]1Cc1ccc(C(=O)O)cc1,,,AlphaScreen,,36.85 µM
Nc1c2ccccc2nc2ccccc12,,,strand transfer,,>100 µM
CN1C(=O)C(=O)/C(=C(\O)c2ccccc2)C1c1cccc(Cl)c1,,,strand transfer,,>100 µM
CC(=O)NC1C(O[C@H]2CC[C@@]3(C)C(CC[C@]4(C)C3CC=C3C5CC(C)(C)CC[C@]5(C(=O)O)CC[C@]34C)C2(C)C)OC(CO)C(O)C1O,,,absorbance,,18.32 µM
Oc1ccc(/C=C/c2ncc3ccccc3n2)cc1,,,3′ processing,,>>200 µM
O=Cc1cc(S(=O)(=O)c2ccc(O)c(C=O)c2)ccc1O,,,strand transfer,,1.3 µM
COc1c(C(=O)O)ccc2cc(/C=C/c3ccc(O)cc3)oc12,,,3′ processing,,>>100 µM

The last 7 rows once more:

compound	strain	changes	method	conditions	result
CCCCc1[nH]cc(CC(Cc2cccs2)C(=O)O)[n+]1Cc1ccc(C(=O)O)cc1			AlphaScreen		36.85 µM
Nc1c2ccccc2nc2ccccc12			strand transfer		>100 µM
CN1C(=O)C(=O)/C(=C(\O)c2ccccc2)C1c1cccc(Cl)c1			strand transfer		>100 µM
CC(=O)NC1C(O[C@H]2CC[C@@]3(C)C(CC[C@]4(C)C3CC=C3C5CC(C)(C)CC[C@]5(C(=O)O)CC[C@]34C)C2(C)C)OC(CO)C(O)C1O			absorbance		18.32 µM
Oc1ccc(/C=C/c2ncc3ccccc3n2)cc1			3′ processing		>>200 µM
O=Cc1cc(S(=O)(=O)c2ccc(O)c(C=O)c2)ccc1O			strand transfer		1.3 µM
COc1c(C(=O)O)ccc2cc(/C=C/c3ccc(O)cc3)oc12			3′ processing		>>100 µM